Compound potency records, mixed from different reports. Data source: NIAID ChemDB in PubChem.

Common to all: target-level tests; organism: HIV-1; target: Reverse transcriptase; measure: fold resistance

Two numbers with a dash give a range or band. Fold resistance has wild type as its base. An empty or dashed field is not shown. Conditions beyond the fields shown may differ between rows.

compound,strain,changes,method,value
NC(=O)c1[nH]c2ccc(Cl)cc2c1S(=O)(=O)c1ccccc1,,RT-L100I,nucleotide incorporation / radiometric,100
Cc1cc(S(N)(=O)=O)ccc1NC(=O)COc1ccccc1C(=O)c1cc(Cl)cc(C#N)c1,NNRTI-resistant,RT-Y181C,fluorescence,1.6
CCc1cc(NCc2nc3c(C)ccc(C)c3o2)c(=O)[nH]c1C,,RT-Y188F,nucleotide incorporation,1
CCN1c2ncc(CCOc3cccc4c3ccc[n+]4[O-])cc2C(=O)N(C)c2ccc(Cl)nc21,,RT-K103N Y181C,nucleotide incorporation / radiometric,5.1
CCN1c2ncc(CCOc3ccc(C(=O)O)c4c3CCN(C(C)=O)C4)cc2C(=O)N(C)c2cccnc21,,RT-V106A,nucleotide incorporation / radiometric,>10
O=C(CSc1nnc(Br)n1-c1ccc(C2CC2)c2ccccc12)Nc1ccc(C(=O)N[C@@H](Cc2ccc(O)cc2)C(=O)O)cc1Cl,,RT-Y188L,nucleotide incorporation / radiometric,>1
CCN1c2ncc(CCOc3cccc4c3CN(Cc3ccncc3)C4=O)cc2C(=O)N(C)c2cccnc21,IIIB,RT-K103N Y181C,nucleotide incorporation / radiometric,>1
CCN1c2ncc(CCOc3ccc(C(=O)c4ccc(C(=O)O)cc4)cc3C)cc2C(=O)N(C)c2cccnc21,IIIB,RT-K103N Y181C,nucleotide incorporation / radiometric,>1
CCN1c2ncc(CCOc3cccc4c3COC(=O)N4)cc2C(=O)Nc2c(C)ccnc21,IIIB,RT-K103N Y181C,nucleotide incorporation / radiometric,>2
Cc1c(Cc2ccccc2)nc(NCCCCN)[nH]c1=O,,RT-Y181L,,>10.3
CC(C)C[C@H](NC(=O)c1ccc(NC(=O)CSc2nnc(Br)n2-c2ccc(C3CC3)c3ccccc23)c(Cl)c1)C(=O)O,,RT-Y188L,nucleotide incorporation / radiometric,>1
CCN1c2ncc(CCOc3ccc(S(=O)(=O)NC(C)=O)c4ccccc34)cc2C(=O)N(C)c2cccnc21,,RT-V106A,nucleotide incorporation / radiometric,>10
C=CCO/N=C/c1cc(NC(=S)c2ccoc2C)ccc1Cl,,RT-Y188H,nucleotide incorporation / radiometric,1.17
CCN1c2ncc(CCOc3cccc4c3CNC(=O)N4)cc2C(=O)N(C)c2cccnc21,IIIB,RT-K103N Y181C,nucleotide incorporation / radiometric,>2
CCN1c2ncc(CCOc3ccc(C(=O)O)c4ccccc34)cc2C(=O)N(C)c2ccc(F)nc21,,RT-K103N Y181C,nucleotide incorporation / radiometric,1–10
CCN1c2ncc(CCOc3ccc(-c4cn(C)cn4)cc3C)cc2C(=O)N(C)c2cccnc21,IIIB,RT-K103N Y181C,nucleotide incorporation / radiometric,1
CCN1c2ncc(CCOc3ccc(C(=O)O)c4c3CCN(C(=O)N(C)C)C4)cc2C(=O)N(C)c2cccnc21,,RT-K103N Y181C,nucleotide incorporation / radiometric,1
CC(C)=CCOc1cc(NC(=S)c2ccoc2C)ccc1Cl,,RT-L100I,,3.19
CCN1c2ncc(CCOc3ccc(-c4ccc(C(=O)O)cc4)c(C)c3)cc2C(=O)N(C)c2cccnc21,IIIB,RT-K103N Y181C,nucleotide incorporation / radiometric,>2
Cc1occc1C(=S)Nc1ccc(Cl)c(C(=O)OCC2CC2)c1,,RT-L108I,nucleotide incorporation / radiometric,3.83
CCN1c2ncc(CCOc3cccc4c3CNC(=O)N4C)cc2C(=O)N(C)c2cccnc21,IIIB,RT-K103N Y181C,nucleotide incorporation / radiometric,1
CCCc1cc(=O)oc2c3c(c4c(c12)OC(C)(C)C=C4)O[C@H](C)C[C@@H]3O,,RT-Y181C,nucleotide incorporation / radiometric,0.2
CCN1c2ncc(CCOc3ccc(CC(=O)O)c4c3CCCC4)cc2C(=O)N(C)c2cccnc21,,RT-Y188L,nucleotide incorporation / radiometric,>10
CCN1c2ncc(CCOc3cccc4c3C(C)C(=O)N4C)cc2C(=O)N(C)c2cccnc21,IIIB,RT-K103N Y181C,nucleotide incorporation / radiometric,>1
Cc1cc(C)cc(S(=O)(=O)c2c(C(N)=O)[nH]c3ccc(Cl)cc23)c1,,RT-V106A,nucleotide incorporation / radiometric,30
CCN1c2ncc(CCOc3ccc(CC(=O)O)c4ccccc34)cc2C(=O)Nc2c(C)cc(F)nc21,,RT-Y188L,nucleotide incorporation / radiometric,>10
CCN1c2ncc(CCOc3ccc(-c4cc(CC(=O)O)ccc4C)cc3C)cc2C(=O)N(C)c2cccnc21,IIIB,RT-K103N Y181C,nucleotide incorporation / radiometric,>1
O=P(O)(O)OP(=O)(O)O,,RT-Q151N,nucleotide incorporation / radiometric,1.7
NCCCCNc1nc(Cc2ccccc2)cc(=O)[nH]1,,RT-V106A,,>14.3
CCc1ccc(-n2c(SCC(=O)Nc3ccc(C(=O)O)cc3C)nnc2C(F)F)c2ccccc12,,RT-Y181C,nucleotide incorporation / radiometric,>2
CCN1c2ncc(CCOc3cccc4c3CNC(=O)C4)cc2C(=O)N(C)c2cccnc21,IIIB,RT-K103N Y181C,nucleotide incorporation / radiometric,1
C=Cc1cc(N(CC)CC)nc(S(C)(=O)=O)n1,,RT-Y181I,nucleotide incorporation / radiometric,>114
Cc1cc(C)cc(S(=O)(=O)c2c(C(=O)NCCO)[nH]c3ccc(Cl)cc23)c1,,RT-Y181I,nucleotide incorporation / radiometric,1340
C=Cc1cc(N(C)C)nc(SCc2ccc(OC)cc2)n1,,RT-K103N,nucleotide incorporation / radiometric,>1.23
O=C(CSc1nnc(Br)n1-c1ccc(C2CC2)c2ccccc12)Nc1ccc(C(=O)O)cc1Cl,,RT-Y188L,nucleotide incorporation / radiometric,>1
CCN1c2ncc(CCc3ccccc3)cc2C(=O)N(C)c2cccnc21,IIIB,RT-Y188L RT-Y181C,RT activity,>>20
CCN1c2ncc(CCOc3cccc4c3CNC(=O)N4)cc2C(=O)Nc2c(C)ccnc21,IIIB,RT-K103N Y181C,nucleotide incorporation / radiometric,>2
CCN1c2ncc(CCOc3ccc(C(=O)O)c4ccccc34)cc2C(=O)N(C)c2ccc(C)nc21,,RT-V106A,nucleotide incorporation / radiometric,>10
Cc1cc(C(=O)O)ccc1NC(=O)CSc1nnc(C(F)F)n1-c1ccc(C)c2c1CCCC2,,RT-Y188L,nucleotide incorporation / radiometric,>2
O=c1cc(Cc2ccccc2)nc(SCCCCO)[nH]1,,RT-V106A,,1.57
CCN1c2ncc(CCOc3ccc(NC(=O)c4ccc(C(=O)O)cn4)cc3C)cc2C(=O)N(C)c2cccnc21,IIIB,RT-K103N Y181C,nucleotide incorporation / radiometric,1
CCN1c2ncc(CCOc3ccc(C4CC4C(=O)O)c4ccccc34)cc2C(=O)N(C)c2ccc(F)nc21,,RT-V106A,nucleotide incorporation / radiometric,1–10
Nc1nc2c(ncn2[C@H]2CC[C@@H](COP(=O)(O)OP(=O)(O)OP(=O)(O)O)O2)c(=O)[nH]1,,RT-Y181I,nucleotide incorporation,0.833
CCN1c2ncc(CCc3ccncc3)cc2C(=O)N(C)c2ccc(Cl)nc21,IIIB,RT-Y181C,RT activity,1.5
CCN1c2ncc(CCOc3ccc(C(=O)NNC)cc3C)cc2C(=O)N(C)c2cccnc21,IIIB,RT-K103N Y181C,nucleotide incorporation / radiometric,1
CCc1ccc(-n2c(SCC(=O)Nc3ccc(C(=O)O)cc3Cl)nnc2C(F)F)c2ccccc12,,RT-Y188L,nucleotide incorporation / radiometric,>2
Cc1occc1C(=S)Nc1ccc(Cl)c(/C=N/OC(C)(C)C)c1,,RT-L100I,nucleotide incorporation / radiometric,>3.85
CCOC(=O)c1c(C(C)C)c(C#N)c(=N)n2ccccc12,,RT-Y181I,,1.62
CCN1c2ncc(CCOc3ccc(CC(=O)O)c4ccccc34)cc2C(=O)N(C)c2ccc(C)nc21,,RT-K103N Y181C,nucleotide incorporation / radiometric,1–10
CC(C)=CCOc1cc(NC(=S)c2ccsc2C)ccc1Cl,,RT-M184V,,4